Pooled drug test results. Numbers come from NIAID ChemDB, via PubChem.

Common to all: tests in culture; species: HIV-1

Neighbouring rows are from separate reports. Blank or dashed fields: not listed here. Two numbers with a dash give a range or band. ECn: concentration that inhibits the pathogen or its effect by n%.

SMILES	endpoint	cells	strain or isolate	conditions	method	changes	result
O=c1[nH]c(=O)n([C@H]2C=C(CO)[C@@H](CO)S2)cc1F	EC50	MT-4	-	-	-	-	2.73 µg/mL
CCCNc1c(N=Nc2ccc(-c3ccc(OC)c(OC)c3)cc2)c(N)nc(=O)n1C	EC50	MT-4	IIIB	-	MTT	-	>36.76 µM
Cc1cn([C@H]2C[C@H](N=[N+]=[N-])[C@@H](COC(=O)NC(=O)CCCC(=O)O)O2)c(=O)[nH]c1=O	EC50	MOLT-4	LAI	-	cytopathic effect	-	0.034 µM
CCn1cc(C(=O)O)c(=O)c2cc(F)c(N3CCN(CN4C(=O)/C(=N\c5ncc(Cc6cc(OC)c(OC)c(OC)c6)c(N)n5)c5cc(F)ccc54)C(C)C3)c(F)c21	EC50	MT-4	IIIB	-	cytopathic effect / MTT	-	57.1 µg/mL
CC[C@@H]1O[C@](/C=C/C2CC2)(C(F)(F)F)c2cc(Cl)ccc2NC1=O	EC50	MT-2	RF	-	-	-	<0.0078 µM
N#Cc1c(Cl)c(Cl)c2nc(N)nc(N)c2c1Cl	EC50	C8166	IIIB	-	syncytia	-	1.8 µg/mL
COc1ccc(CN(CC(O)C(Sc2ccccc2)N(Cc2ccc(OC)cc2)C(=O)N(C)c2ccccc2)C(=O)N(C)c2ccccc2)cc1	EC50	MT-4	LAV	-	syncytia	-	0.1–1 µM
Nc1ccc([C@H]2C[C@H](O)[C@@H](CO)O2)c(F)c1	EC50	CEM	-	-	-	-	>250 µM
Cc1sc(-c2ccc(C(N)=O)cc2)c(C2=CCC(C(C)C)CC2)c1C(OC(C)(C)C)C(=O)O	EC50	MT-4	NL4-3	-	ATP	-	0.09 µM
Cc1cccc(C)c1OCC(=O)N[C@@H](Cc1ccccc1)[C@H](OC(=O)CCCC(=O)NCC(=O)O)C(=O)N1CSC(C)(C)[C@H]1C(=O)NC(C)(C)C	EC50	MOLT-4	LAI	-	cytopathic effect	-	3.8 µM
CCCCC1=NC2CC(/C=C/C(=O)NO)=CC=C2N1CCN(CC)CC	EC50	PBMC	-	-	luciferase	-	0.212 µM
COCC[C@]1(C)C(=O)c2c(O)c(=O)c(C(=O)NCc3ccc(F)cc3F)cn2C[C@@H]1OC	EC50	MT-4	NL4-3	100% human serum	GFP	-	0.032 µM
CC(C)[C@H](NC(=O)c1cccnc1)C(=O)N(Cc1ccccc1)CC(O)C(Sc1ccccc1)N(Cc1ccccc1)C(=O)[C@@H](NC(=O)c1cccnc1)C(C)C	EC50	MT-4	LAV	-	syncytia	-	1 µM
O=C1Nc2ccc(Cl)cc2[C@@](/C=C/C2CC2)(C(F)(F)F)N1	EC50	MT-2	RF	-	-	-	<0.0021 µM
O=C(O)c1cc(-n2cccc2)ccc1Cl	EC90	MT-2	AZT-resistant X4 CLADE B	-	p24	-	94.28 µM
O=c1cc(Cc2ccccc2)nc(OCCCCO)[nH]1	EC50	MT-4	IIIB	-	cytopathic effect / MTT	-	>200 µM
CC(C)CN(C[C@@H](O)[C@H](Cc1ccccc1)NC(=O)OCc1cncs1)S(=O)(=O)c1ccc(-c2csc(Nc3ccncc3)n2)cc1	EC50	MT-4	LAI	-	cytopathic effect / MTT	-	3.162 µM
O=c1cc(Cc2ccccc2)nc(OC2CCCCC2)[nH]1	EC50	MT-4	IIIB	-	cytopathic effect / MTT	-	9 µM
C=C(C)[C@@H]1CC[C@]2(C(=O)NCCCCCCCCC(=O)N[C@H](CCC(N)=O)C(=O)OC)CC[C@]3(C)[C@H](CC[C@@H]4[C@@]5(C)CC[C@H](OC(=O)CC(C)(C)C(=O)O)C(C)(C)[C@@H]5CC[C@]43C)[C@@H]12	EC50	-	NL4-3	-	absorbance	-	0.0125 µM
CCn1cc(C(=O)O)c(=O)c2cc(F)c(N3CCN(CN4C(=O)/C(=N\c5ncc(Cc6cc(OC)c(OC)c(OC)c6)c(N)n5)c5cc(F)ccc54)CC3)cc21	EC50	CEM	-	-	cytopathic effect / XTT	-	50.8 µg/mL
CC1Cn2c(=O)[nH]c3cccc(c32)CN1Cc1ncc[nH]1	EC50	MT-4	IIIB	-	cytopathic effect / MTT	-	>685 µM
Cn1c(N2CCOCC2)c(N=Nc2ccc(Cl)cc2)c(N)nc1=O	EC50	MT-4	IIIB	-	MTT	-	>12.22 µM
C[C@@]12CCCCC[C@]1(O)Cn1cc(C(=O)NCc3cccc(Cl)c3F)c(=O)c(O)c1C2=O	EC50	MT-4	NL4-3	100% human serum	GFP	-	0.365 µM
CC(C)=CCC/C(C)=C/CN1Cc2cccc3[nH]c(=O)n(c23)CC1C	EC50	MT-4	IIIB	-	cytopathic effect / MTT	-	>44 µM
Cc1cn([C@H]2C[C@H](N=[N+]=[N-])[C@@H](COC(=O)N3C(=O)CCC3=O)O2)c(=O)[nH]c1=O	EC50	MOLT-4	LAI	-	cytopathic effect	-	0.013 µM
Cn1c(N2CCCCC2)c(N=Nc2ccc(Cl)cc2)c(N)nc1=O	EC50	MT-4	IIIB	-	MTT	-	>20.11 µM
COc1cc(Cc2cnc(/N=C3\C(=O)N(CN4CCN(Cc5ccccc5)CC4)c4ccc(F)cc43)nc2N)cc(OC)c1OC	EC50	MT-4	IIIB	-	cytopathic effect / MTT	-	>139.3 µg/mL
COC(=O)/C=C/CN1Cc2cccc3[nH]c(=O)n(c23)CC1C	EC50	MT-4	IIIB	-	cytopathic effect / MTT	-	>252 µM
COC([C@@H]1OC[C@@](O)(CO)[C@H]1N=[N+]=[N-])n1cnc2c(N)ncnc21	EC50	MT-4	IIIB	-	ELISA / antigen	-	>300 µM
CC(C)(CN1CCCCC1)NC(=O)[C@]12CC[C@@H](C3(C)CC3)[C@@H]1[C@H]1CC[C@@H]3[C@@]4(C)CC[C@H](OC(=O)CC(C)(C)C(=O)O)C(C)(C)[C@@H]4CC[C@@]3(C)[C@]1(C)CC2	EC50	MT-2	92HT599	40% human serum	p24	-	0.05–0.1 µM
COCC1OC(=O)C12N(C)C(=O)C(C)C2(O)C(CC(C)C(O)/C=C/C=C/CNC(=O)C(C)(C)C(O)\C(C)=C/C=C\C=C\Cc1cnc(C)o1)OC	EC50	H9	IIIB	-	RT activity	-	2.5 µg/mL
COc1cc(Cc2cnc(/N=C3\C(=O)N(CN4CCN(c5ccccc5)CC4)c4ccc(F)cc43)nc2N)cc(OC)c1OC	EC50	MT-4	IIIB	-	cytopathic effect / MTT	-	>84.7 µg/mL
CC(=O)CN1Cc2cccc3[nH]c(=O)n(c23)CC1C	EC50	MT-4	IIIB	-	cytopathic effect / MTT	-	>760 µM
COc1cc(Cc2cnc(/N=C3\C(=O)N(CN4CCN(c5ccc(Cl)cc5)CC4)c4ccc(F)cc43)nc2N)cc(OC)c1OC	EC50	CEM	-	-	cytopathic effect / XTT	-	>95.6 µg/mL
CC(C)[C@H](NC(=O)OC(C)(C)C)C(=O)N(Cc1ccccc1)CC(O)C(Sc1ccccc1)N(Cc1ccccc1)C(=O)[C@@H](NC(=O)OC(C)(C)C)C(C)C	EC50	MT-4	LAV	-	syncytia	-	1 µM
C[C@@H]1O[C@](C#CC2CC2)(C(F)(F)F)c2cc(Cl)ccc2NC1=O	EC50	-	-	-	-	RT-K103N	<0.029 µM
CCOC(=O)c1ccc(-c2cc(N)nc(=O)n2C)cc1	EC50	MT-4	IIIB	-	MTT	-	>75.23 µM
CC(C)CN(C[C@@H](O)[C@H](Cc1ccccc1)NC(=O)O[C@H]1CO[C@H]2OCC[C@H]21)S(=O)(=O)c1ccc(-c2coc(-c3ccc([N+](=O)[O-])cc3)n2)cc1	EC50	MT-4	LAI	-	cytopathic effect / MTT	-	0.013 µM
CN(C(=O)N(Cc1ccccc1)CC(O)C(Sc1ccccc1)N(Cc1ccccc1)C(=O)N(C)c1ccccc1)c1ccccc1	EC50	MT-4	LAV	-	syncytia	-	10–50 µM
Cc1c(Cc2ccccc2)[nH]c(=O)[nH]c1=O	EC50	MT-4	IIIB	-	cytopathic effect / MTT	-	>200 µM
COc1ccc(-c2cc(N)nc(=O)n2C)cc1OC	EC50	MT-4	IIIB	-	MTT	-	>14.23 µM
CCCCCOc1nc(Cc2ccccc2)cc(=O)[nH]1	EC50	MT-4	IIIB	-	cytopathic effect / MTT	-	37 µM
CC(=O)Nc1nc(-c2ccc(S(=O)(=O)N(CC(C)C)C[C@@H](O)[C@H](Cc3ccccc3)NC(=O)O[C@H]3CO[C@H]4OCC[C@H]43)cc2)cs1	EC50	MT-4	-	-	cytopathic effect / MTT	PR-L010F M046I M071V I084V	0.755 µM
Cc1ccccc1CNC(=O)[C@H]1N(C(=O)[C@@H](OC(=O)CCCC(=O)NCC(=O)OC[C@@H]2O[C@H](n3cc(C)c(=O)[nH]c3=O)C[C@H]2N=[N+]=[N-])[C@H](Cc2ccccc2)NC(=O)COc2c(C)cccc2C)CSC1(C)C	EC50	MOLT-4	LAI	-	cytopathic effect	-	0.0008 µM
Nc1nc(=O)n([C@H]2O[C@@H](CO)C=C2F)cc1F	EC50	PBMC	LAV	-	RT activity	-	0.46 µM
CC(C)N1Cc2cccc3[nH]c(=O)n(c23)CC1C	EC50	MT-4	IIIB	-	cytopathic effect / MTT	-	>65 µM
Cc1sc(N)nc1-c1ccc(S(=O)(=O)N(CC(C)C)C[C@@H](O)[C@H](Cc2ccccc2)NC(=O)O[C@H]2CO[C@H]3OCC[C@H]32)cc1	EC50	MT-4	LAI	-	cytopathic effect / MTT	-	0.05 µM
Nc1ncnc2c1ncn2[C@@H]1O[C@H](CO)[C@@H]1O	EC50	MT-4	-	-	plaque count	-	0.54 µg/mL
C[C@@H]1O[C@](C#CC2CC2)(C(F)(F)F)c2cc(F)ccc2NC1=O	EC50	-	-	-	-	RT-K103N	<0.333 µM
Nc1ncnc2c1ncn2[C@@H]1O[C@H](CO)[C@H]1O	EC50	MT-4	-	-	plaque count	-	5.5 µg/mL
CC(C)CN(C[C@@H](O)[C@H](Cc1ccccc1)NC(=O)O[C@H]1CO[C@H]2OCC[C@H]21)S(=O)(=O)c1ccc(-c2cnc(N)[nH]2)cc1	EC50	MT-4	LAI	-	cytopathic effect / MTT	-	0.631 µM
CCC[C@@H]1O[C@](C#CC2CC2)(C(F)(F)F)c2cc(Cl)ccc2NC1=O	EC50	MT-2	RF	-	-	-	<0.0172 µM
N#Cc1c(Nc2ccccc2)c(F)c2nc(N)nc(N)c2c1F	EC50	C8166	IIIB	-	syncytia	-	0.4 µg/mL
COCC[C@@]1(C)C(=O)c2c(O)c(=O)c(C(=O)NCc3ccc(F)cc3F)cn2C[C@@H]1OC	EC50	MT-4	NL4-3	0% human serum	GFP	-	0.0026 µM
CC(C)CN(C[C@@H](O)[C@H](Cc1ccccc1)NC(=O)O[C@H]1CO[C@H]2OCC[C@H]21)S(=O)(=O)c1ccc(-c2coc(-c3ccc(C#N)cc3)n2)cc1	EC50	MT-4	LAI	-	cytopathic effect / MTT	-	0.008 µM
CCCCCCNc1c(N=Nc2ccc(-c3ccc(F)cc3)cc2)c(N)nc(=O)n1C	EC50	MT-4	IIIB	-	MTT	-	>11.66 µM
CC1/C=C/C=C/C=C/C=C/C=C/C=C/C=C/C(OC2OC(C)C(O)C(N)C2O)CC(O)C(C(=O)O)C(O)CC(=O)CC(O)CC(O)CC(O)CC(=O)CCCC(=O)CC(=O)OC1	EC50	H9	IIIB	-	p24 / antigen	-	>0.01 µg/mL
Nc1nc(NC2CC2)c2ncn([C@H]3C=C[C@@H](CO)C3)c2n1	EC90	PBMC	NL-XM WT	-	p24	-	4.5 µM
CCc1c(Cc2ccccc2)nc(OC)[nH]c1=O	EC50	MT-4	IIIB	-	cytopathic effect / MTT	-	>200 µM
COC([C@@H]1OC[C@@](O)(CO)[C@H]1N=[N+]=[N-])n1ccc(N)nc1=O	EC50	MT-4	IIIB	-	ELISA / antigen	-	>300 µM
CC[C@@H]1O[C@](C#CC2CC2)(C(F)(F)F)c2cc(Cl)ccc2NC1=O	EC50	MT-2	RF	-	-	-	<0.0084 µM
COc1cc(Cc2cnc(/N=C3\C(=O)N(CN4CCN(c5cccc(C(F)(F)F)c5)CC4)c4ccc(F)cc43)nc2N)cc(OC)c1OC	EC50	MT-4	IIIB	-	cytopathic effect / MTT	-	62.1 µg/mL
CCCCOc1nc(Cc2ccccc2)c(CC)c(=O)[nH]1	EC50	MT-4	IIIB	-	cytopathic effect / MTT	-	32 µM
COc1ccc(-c2ccc(N=Nc3c(N)nc(=O)n(C)c3-c3ccc(OC)c(OC)c3)cc2)cc1OC	EC50	MT-4	IIIB	-	MTT	-	>1.63 µM
CC(C)CN(C[C@@H](O)[C@H](Cc1ccccc1)NC(=O)O[C@H]1CO[C@H]2OCC[C@H]21)S(=O)(=O)c1ccc(-c2nc(N)nc(N)n2)cc1	EC50	MT-4	LAI	-	cytopathic effect / MTT	-	1 µM
CC1Cn2c(=O)[nH]c3cccc(c32)CN1C/C=C/c1ccccc1	EC50	MT-4	IIIB	-	cytopathic effect / MTT	-	>783 µM
COc1ccc(S(=O)(=O)N(C[C@@H](O)[C@H](Cc2ccccc2)NC(=O)[C@H](CC(N)=O)NC(=O)c2ccc3ccccc3n2)OC2CCCC2)cc1	EC50	MT-4	IIIB	-	cytopathic effect / propidium iodide	-	0.024 µM
CC(C)=C(C)CN1Cc2cccc3[nH]c(=O)n(c23)CC1C	EC50	MT-4	IIIB	-	cytopathic effect / MTT	-	>876 µM
CN1C(=O)c2ccccc2C1(N)c1ccccc1	EC50	CEM + CEM-SS	RF	-	cytopathic effect / XTT	-	10 µM
COC(=O)c1cccc(Cn2ccc3ccc(-c4ccc5ccn(Cc6cccc(C(=O)Oc7c(F)c(F)c(S(=O)(=O)[O-])c(F)c7F)c6)c5c4)cc32)c1.[Na+]	EC50	TZM-bl	HXB2	pseudotyped	luciferase	-	0.09 µM